Anti-infective test results gathered from many reports (values: NIAID ChemDB through PubChem).

All rows: growth or infection tests; species: Hepatitis C virus

Blank or dashed fields: not listed here. Lines come from different laboratories, so protocols vary. a–b is a range or a potency band. ECn: concentration that inhibits the pathogen or its effect by n%.

SMILES	cells	method	measure	conditions	strain	result
C=CC1CC1(NC(=O)[C@@H]1C[C@@H](Oc2cc(-c3ccccc3)nc3cc(OC)ccc23)CN1C(=O)[C@@H](N1CCCCC1)C(C)(C)C)C(=O)OCC	-	replicon	EC50	-	1b	<100 µM
O=C(N[C@H]1CCCCC/C=C\[C@@H]2C[C@@]2(C(=O)NS(=O)(=O)C2CC2)NC(=O)C2C[C@@H](OC(=O)N3Cc4cccc(F)c4C3)CN2C1=O)c1ccc2c(c1)B(O)OC2	-	luciferase / replicon	EC50	genotype 1b	-	3.2 nM
Oc1cc(O)cc(-c2cc3ccc(O)cc3o2)c1	-	replicon	EC50	-	-	>100 µM
O=C(Cn1nnc2cc3cccnc3c(Cl)c21)Cn1nnc2cc3cccnc3c(Cl)c21	Huh7	MTT	EC50	-	1b	>100 µM
Cc1ccc(NC(=S)Nc2ccc(Sc3cc(=O)n(C)c4ccc(C)cc34)cc2)cc1	Huh-Luc-Neo	luciferase / replicon	EC50	-	-	1–10 µM
Nc1ccn([C@@H]2C[C@H](CO)[C@@H](O)C23CC3)c(=O)n1	Huh7	luciferase	EC50	-	-	14.4 µM
Nc1nc(N2CCOCC2)c2nc(-c3cccc(Cl)c3)cnc2n1	Huh7	-	EC50	-	-	0.3–1 µM
Cn1c(=O)cc(Sc2ccc(NC(=O)[C@H](Cc3ccccc3)NC(=O)OC(C)(C)C)cc2)c2ccccc21	Huh-Luc-Neo	luciferase / replicon	EC50	-	-	1–10 µM
Nc1nc(N2CCOCC2)c2nc(-c3ccoc3)cnc2n1	Huh7	-	EC50	-	-	1–10 µM
Cn1c(=O)cc(Sc2ccc(Cl)cc2)c2ccccc21	Huh-Luc-Neo	luciferase / replicon	EC50	-	-	1–10 µM
C=CC1CC1(NC(=O)[C@@H]1C[C@@H](Oc2cc(-c3ccccc3)nc3cc(OC)ccc23)CN1C(=O)[C@H](C)N1CCCCC1)C(=O)OCC	-	replicon	EC50	-	1b	<100 µM
CC(C)(C)OC(=O)N[C@@H]1CCCCC/C=C\[C@@H]2C[C@@]2(C(=O)NS(=O)(=O)C2CC2)NC(=O)[C@@H]2C[C@@H](OC(=O)N3Cc4cccc(F)c4C3)CN2C1=O	-	replicon	EC50	genotype 1b	A156S	0.002 µM
COC(=O)[C@@H](Cc1cnc[nH]1)NC(=O)CCC(=O)N1c2cccc(O)c2NC2=C(C(=O)CC(C)(C)C2)C1c1ccc(OCc2ccccc2)cc1Cl	-	luciferase / reporter gene / replicon	EC50	-	1b	43.73 µM
C=CC1CC1(NC(=O)[C@@H]1C[C@@H](OC(=O)Nc2ccccc2OC)CN1C(=O)[C@@H](NC(=O)OC(C)(C)C)C(C)(C)C)C(=O)NS(=O)(=O)C1CC1	Huh7	replicon	EC50	-	1b	0.1–1 µM
COc1ccc(OCc2ccccc2)c(-c2ccn(-c3nccc(OC)c3OC)n2)c1	Huh7	replicon	EC50	-	-	>32 µM
C=CC1CC1(NC(=O)[C@@H]1C[C@@H](Oc2cc(-c3ccccc3)nc3cc(OC)ccc23)CN1C(=O)[C@H](c1ccccc1)N1CCCCC1)C(=O)OCC	-	replicon	EC50	-	1b	<100 µM
CC1(C)CCCCc2cccc3c2CN(C3)C(=O)O[C@@H]2C[C@@H](C(=O)NC3CCOB3O)N(C2)C(=O)[C@H](C(C)(C)C)NC(=O)OC1	-	replicon	EC50	genotype 1b	-	0.52 µM
Nc1nc(N2CCOCC2)c2nc(-c3cccc(Cl)c3Cl)cnc2n1	Huh7	-	EC50	-	-	0.3–1 µM
Cc1ccc(C(=O)NC(C)C)cc1-c1ccc(C(=O)Nc2ccc(CN3CCS(=O)(=O)CC3)cc2)cc1	-	replicon	EC50	-	1b	5.1 µM
COC(=O)C1=C(C(=O)OC)C2N(CCOCCN3c4ccccc4[C@]45CC(=O)N(Cc6ccccc6)C4=NC(C(=O)OC)=C(C(=O)OC)C35)C3C=CC=CC3[C@@]23CCC(=O)N(Cc2ccccc2)C3=N1	Huh7.5	PCR	EC50	-	-	2.5 µM
CSc1ccn([C@@H]2O[C@H](CO)[C@@H](O)[C@H]2F)c(=O)n1	Huh7	replicon	EC90	-	-	>100 µM
CC1(C)CC(=O)C2=C(C1)Nc1c(O)cccc1N(C(=O)CCC(=O)Nc1ccccc1C(F)(F)F)C2c1ccc(OCc2ccccc2)cc1Cl	-	luciferase / reporter gene / replicon	EC50	-	1b	3.35 µM
CCOC(=O)n1cc(CNCCN2CCN(C)CC2)c(-c2ccccc2C)n1	Huh7	-	EC50	-	-	>20 µM
Cc1cc2c(Sc3ccc(F)cc3)cc(=O)n(C)c2cc1C	Huh-Luc-Neo	luciferase / replicon	EC50	-	-	<1 µM
Cc1cc(C)cc(Nc2nc3ccc(C)cc3s2)c1	Huh7	PCR	EC50	-	Con1	5 µM
C=CC1CC1(NC(=O)[C@@H]1C[C@@H](OC(=O)NC2CCCCC2)CN1C(=O)[C@@H](NC(=O)OC(C)(C)C)C(C)(C)C)C(=O)NS(=O)(=O)C1CC1	Huh7	replicon	EC50	-	1b	1–10 µM
COc1ncc(-c2cc(C[n+]3cc4[nH]c(-c5cccc(F)c5F)nc4cn3)on2)cn1	Huh-luc/neo-ET	replicon	EC50	-	Genotype 1A	50 µM
C=CC1CC1(NC(=O)[C@@H]1C[C@@H](OC(=O)Nc2cc(C)ccc2-n2cccc2)CN1C(=O)[C@@H](NC(=O)OC(C)(C)C)C(C)(C)C)C(=O)NS(=O)(=O)C1CC1	Huh7	replicon	EC50	-	1b	<0.1 µM
COc1ccc2c(O[C@@H]3C[C@H]4C(=O)N[C@]5(C(=O)O)C[C@H]5/C=C\CCCCC[C@H](NC(=O)OC5CCCC5)C(=O)N4C3)cc(-c3csc(NC(C)C)n3)nc2c1	Huh7	replicon	EC50	-	-	0.003 µM
CCCC(NC(=O)C1C2CCCC2CN1C(=O)[C@@H](NC(=O)OC(C)(C)C)C(C)(C)C)C(=O)C(=O)NC1CC1	-	replicon	EC50	-	1b	<100 µM
C=CCN1c2ccccc2[C@]23CC(=O)N(Cc4ccccc4)C2=NC(C(=O)OC)=C(C(=O)OC)C13	Huh7.5	PCR	EC50	-	-	3.2 µM
C=CC1CC1(NC(=O)[C@@H]1C[C@@H](OC(=O)Nc2ccccc2C(C)(C)C)CN1C(=O)[C@@H](NC(=O)OC(C)(C)C)C(C)(C)C)C(=O)NS(=O)(=O)C1CC1	Huh7	replicon	EC50	-	1b	1–10 µM
CC(=O)Nc1ccc(Sc2cc(=O)n(C)c3ccccc23)cc1	Huh-Luc-Neo	luciferase / replicon	EC50	-	-	1–10 µM
Cc1ccc(NC(=O)C2CC2)cc1-c1ccc(C(=O)Nc2ccc(CN3CCS(=O)(=O)CC3)cc2)cc1	-	replicon	EC50	-	1b	0.17 µM
Fc1cccc(-c2nc3cn[n+](Cc4cc(-c5ccc(C(F)(F)F)nc5)no4)cc3[nH]2)c1F	Huh-luc/neo-ET	replicon	EC50	-	genotype 1b	0.313 µM
CCNC(=O)c1cc(-c2ccc(OC)cc2)nn1-c1ncccc1[N+](=O)[O-]	Huh7	replicon	EC50	-	-	>32 µM
O=c1nc(NO)c(F)cn1[C@H]1O[C@@H](CO)C[C@@H]1O	Huh7	-	EC50	-	-	31.2 µM
Cc1ccc(Sc2cc(=O)n(C)c3cc(C)c(C)cc23)cc1	Huh-Luc-Neo	luciferase / replicon	EC50	-	-	<1 µM
COc1cc(O)c(-c2noc(-c3ncccc3C)n2)c(OC)c1	Huh7	replicon	EC50	-	-	0.7 µM
Nc1nc(N2CCOCC2)c2nc(-c3ccc(CN4CCOCC4)cc3)cnc2n1	Huh7	-	EC50	-	-	1–10 µM
Cc1ccc2nc(Nc3cc(Cl)cc(Br)c3)sc2c1	Huh7	PCR	EC50	-	Con1	>200 µM
C=CC1CC1(NC(=O)[C@@H]1C[C@@H](OC(=O)N(CCCC)CCCC)CN1C(=O)[C@@H](NC(=O)OC(C)(C)C)C(C)(C)C)C(=O)NS(=O)(=O)C1CC1	Huh7	replicon	EC50	-	1b	1–10 µM
O=c1nc(NO)c(I)cn1[C@@H]1O[C@H](CO)C[C@H]1O	Huh7	-	EC50	-	-	34.7 µM
CC(C)(C)C(=O)Nc1ccc(-c2cnc3nc(N)nc(N4CCOCC4)c3n2)cc1	Huh7	-	EC50	-	-	1–10 µM
Nc1nc(=O)n([C@@H]2O[C@H](CO)[C@@H](O)[C@H]2F)cc1F	Huh7	replicon	EC90	-	-	9.4 µM
OCC1CCC(c2ccc3ncnc(Nc4ccc(C5CCOCC5)cc4)c3c2)O1	Con1-SR	-	EC50	-	1b	0.29 µM
O=[N+]([O-])c1ccccc1-n1nccc1-c1ccccc1O	Huh7	replicon	EC50	-	-	5.3 µM
C=CC1CC1(NC(=O)[C@@H]1C[C@@H](OC(=O)Nc2cccc(SC)c2)CN1C(=O)[C@@H](NC(=O)OC(C)(C)C)C(C)(C)C)C(=O)NS(=O)(=O)C1CC1	Huh7	replicon	EC50	-	1b	1–10 µM
Cc1cccc(Nc2nc3ccc(C)cc3s2)c1	Huh7	PCR	EC50	-	Con1	>200 µM
COc1ccc(-c2cc(C(=O)O)n(-c3ncccc3C(F)(F)F)n2)cc1	Huh7	replicon	EC50	-	-	>32 µM
Cc1nc(C(=O)N2c3cccc(O)c3NC3=C(C(=O)CC(C)(C)C3)C2c2ccc(OCc3ccccc3)cc2F)c(C(F)(F)F)o1	-	luciferase / reporter gene / replicon	EC50	-	1b	0.43 µM
C=CC1CC1(NC(=O)[C@@H]1C[C@@H](OC(=O)Nc2ccccc2C(=O)OCC)CN1C(=O)[C@@H](NC(=O)OC)C(C)(C)C)C(=O)NS(=O)(=O)C1CC1	Huh7	replicon	EC50	-	1b	0.1–1 µM
C=CC1CC1(NC(=O)[C@@H]1C[C@@H](Oc2cc(-c3ccccc3)nc3cc(OC)ccc23)CN1C(=O)[C@@H](N1CCCCC1)C(C)(C)C)C(=O)O	-	replicon	EC50	-	1b	<100 µM
C=CC1CC1(NC(=O)[C@@H]1C[C@@H](OC(=O)N(C(C)C)C(C)C)CN1C(=O)[C@@H](NC(=O)OC(C)(C)C)C(C)(C)C)C(=O)NS(=O)(=O)C1CC1	Huh7	replicon	EC50	-	1b	0.1–1 µM
Nc1ccn([C@@H]2C[C@H](CO)[C@@H](CO)C23CC3)c(=O)n1	Huh7	luciferase	EC50	-	-	>50 µM
CN(C)[C@@H](C(=O)N1CCC[C@H]1C(=O)Nc1ccc(C#Cc2ccc(NC(=O)[C@@H]3CCCN3C(=O)[C@@H](c3ccccc3)N(C)C)cc2)cc1)c1ccccc1	Huh7	ELISA	EC50	-	GT1a	<0.0046 µM
Cc1ccc(C(=O)Nc2ccc(N3CCOCC3)cc2)cc1-c1ccc(C(=O)Nc2ccc(CCN3CCS(=O)(=O)CC3)cc2)cc1	-	replicon	EC50	-	1b	>25 µM
Cc1ccc2nc(Nc3cccc([N+](=O)[O-])c3)sc2c1	Huh7	PCR	EC50	-	Con1	8 µM
Cc1cccnc1-c1nc(-c2cc(NC(=O)OC(C)(C)C)ccc2O)no1	Huh7	replicon	EC50	-	-	4.7 µM
Nc1nc(N2CCOCC2)c2nc(-c3cccc(OC(F)(F)F)c3)cnc2n1	Huh7	-	EC50	-	-	<0.3 µM
Cc1ccccc1-c1noc(-c2ccc(OCCO)cc2O)n1	Huh7	replicon	EC50	-	-	2.5 µM
CC1(C)CC(=O)C2=C(C1)Nc1c(O)cccc1N(C(=O)CC(=O)NS(=O)(=O)C1CC1)C2c1ccc(Oc2ccccc2Br)cc1Cl	-	luciferase / reporter gene / replicon	EC50	-	1b	>100 µM
C=C[C@@H]1C[C@]1(NC(=O)[C@@H]1C[C@@H](Oc2ncc(OC)c3ccc(Cl)cc23)CN1C(=O)[C@@H](NC(=O)OC(C)(C)C)C(C)(C)C)C(=O)NS(=O)(=O)C1CC1	H77	-	EC50	-	-	0.0094 µM
COCCOCCOC(=O)N1c2cccc(O)c2NC2=C(C(=O)CC(C)(C)C2)C1c1ccc(OCc2ccccc2)cc1Cl	-	luciferase / reporter gene / replicon	EC50	-	1b	4.47 µM
COc1cccc(Nc2nc3ccc(C)cc3s2)c1	Huh7	PCR	EC50	-	Con1	>200 µM
CCCC(NC(=O)C1C2CCCC2CN1C(=O)[C@H](C(C)C)N1CCCCC1)C(=O)C(=O)NC1CC1	-	replicon	EC50	-	1b	<100 µM
CC1(C)CCCCc2cccc3c2CN(C3)C(=O)O[C@@H]2C[C@@H](C(=O)NC3B(O)OC[C@@H]3C3CC3)N(C2)C(=O)[C@H](C(C)(C)C)NC(=O)OC1	-	replicon	EC50	genotype 1a	-	0.98 µM
Cc1ccc(C(=O)Nc2ccc(N3CCOCC3)cc2)cc1-c1ccc(C(=O)Nc2ccc(CC3CCN(S(C)(=O)=O)CC3)cc2)cc1	-	replicon	EC50	-	1b	2.3 µM
COc1ccc(-c2cc(C[n+]3cc4[nH]c(-c5cccc(F)c5F)nc4cn3)on2)cc1	Huh-luc/neo-ET	replicon	EC50	-	genotype 1b	0.093 µM
CC1(C)Oc2cc3oc(-c4cc(O)cc(OC[C@H]5O[C@@H](O)[C@H](O)[C@@H](O)[C@@H]5O)c4)cc3cc2CC1O	-	replicon	EC50	-	-	>100 µM
O=C(O)/C=C/c1ccc(NC(=O)C2(NC(=O)c3ccc4c(c3)nc(-c3ccoc3)n4C3CCCCC3)CCCC2)cc1	-	-	EC50	-	-	0.89 µM